Results of unrelated studies side by side (data: NIAID ChemDB).

All rows: tests in culture; organism: Encephalitozoon intestinalis

A number after MIC or MFC names an inhibition level or a share of isolates.

compound | dose | measure | cell line | value
O=C(NC(=O)c1c(F)cccc1F)Nc1cc(Cl)c(OC(F)(F)C(F)C(F)(F)F)cc1Cl | 2.5 µg/mL | inhibition | RK-13 | 32.2%
c1ccc2[nH]c(-c3cscn3)nc2c1 | - | EC50 | E6 | 0.025 µg/mL
c1ccc2[nH]c(-c3cscn3)nc2c1 | 0.01 µg/mL | inhibition | RK-13 | 34.9%
COC(=O)Nc1nc2ccc(C(=O)c3ccccc3)cc2[nH]1 | - | EC50 | E6 | 0.002 µg/mL
CO[C@@H]1[C@H](OC(=O)NC(=O)CCl)CC[C@]2(CO2)[C@H]1[C@@]1(C)O[C@@H]1CC=C(C)C | - | MIC50 | - | 0.003 µg/mL
O=C(O)c1cn(C2CC2)c2cc(N3CCNCC3)c(F)cc2c1=O | - | MIC50 | - | 84 µM
COC(=O)Nc1nc2ccc(C(=O)c3ccc(F)cc3)cc2[nH]1 | - | EC50 | E6 HOST CELLS | 0.01 µg/mL
CCOC(=O)Nc1cc2[nH]c(-c3ccc(OC)cc3)nc2c(NC(c2ccccc2)c2ccccc2)n1 | 0.1 µg/mL | inhibition | RK-13 | 20.9%
CCn1cc(C(=O)O)c(=O)c2cc(F)c(N3CCNCC3)cc21 | - | MIC50 | - | 1 µM
CCOC(=O)Nc1cc(NC(C)/C(=N/O)c2cccc([N+](=O)[O-])c2)c([N+](=O)[O-])c(N)n1 | 0.1 µg/mL | inhibition | RK-13 | 0%
CC(C)OC(=O)Nc1ccc2nc(-c3cscn3)[nH]c2c1 | - | EC50 | E6 HOST CELLS | 0.075 µg/mL
CCn1cc(C(=O)O)c(=O)c2cc(F)c(N3CCNCC3)nc21 | - | MIC50 | - | 69 µM
CCCOc1ccc2nc(NC(=O)OC)[nH]c2c1 | - | EC50 | E6 HOST CELLS | 0.01 µg/mL
CCOC(=O)Nc1cc2c(nc(-c3ccccc3)c3nnnn32)c(NC(c2ccccc2)c2ccccc2)n1 | 0.1 µg/mL | inhibition | RK-13 | 52.5%
CCn1cc(C(=O)O)c(=O)c2cnc(N3CCNCC3)nc21 | - | MIC50 | - | >100 µM

Percent inhibition refers to the dose given; in toxicity tests it is the harm to the cells. Neighbouring rows are from separate reports. Blank or dashed fields: not listed here. ECn is the concentration giving n% inhibition of infection, replication or growth.